Key:
Conditions in all cases: remark: other sources report otherwise
[1] = target: SARS-CoV-2 RBD (B.1.1.7) domain (SARS-CoV-2); test: ELISA
[2] = target: SARS-CoV-2 RBD (P.1) domain (SARS-CoV-2); test: ELISA
[3] = target: SARS-CoV-2 RBD domain, Wuhan (SARS-CoV-2); test: ELISA
[4] = target: T1, SARS-CoV-2 Spike ectodomain (tri-S), Wuhan (SARS-CoV-2), P0DTC2; test: ELISA
[5] = target: SARS-CoV-2 delta plus variant RBD (SARS-CoV-2); test: ELISA
[6] = target: T2, SARS-CoV-2 delta variant B.1.617.2/3 RBD domain (SARS-CoV-2); test: ELISA
[7] = target: T3, SARS-CoV-2 kappa variant B.1.617.1/3 RBD domain (SARS-CoV-2); test: ELISA
[8] = target: SARS-CoV-2 Spike (S) protein on cells (S-Flow assay) (SARS-CoV-2), P0DTC2; test: flow cytometry (Mock 2.5)
[9] = target: SARS-CoV-2 RBD (B.1.1.7) domain (SARS-CoV-2); test: ELISA; set-up: unit not given beside the values
[10] = target: SARS-CoV-2 RBD (B.1.351) domain (SARS-CoV-2); test: ELISA; set-up: unit not given beside the values
[11] = target: SARS-CoV-2 RBD (P.1) domain (SARS-CoV-2); test: ELISA; set-up: unit not given beside the values
[12] = target: SARS-CoV-2 RBD domain, Wuhan (SARS-CoV-2); test: ELISA; set-up: unit not given beside the values
[13] = target: T1, SARS-CoV-2 Spike ectodomain (tri-S), …; test: ELISA; set-up: unit not given beside the values
[14] = target: SARS-CoV-2 delta plus variant RBD (SARS-CoV-2); test: ELISA; set-up: unit not given beside the values
[15] = target: T2, SARS-CoV-2 delta variant B.1.617.2/3 …; test: ELISA; set-up: unit not given beside the values
[16] = target: T3, SARS-CoV-2 kappa variant B.1.617.1/3 …; test: ELISA; set-up: unit not given beside the values
[17] = target: SARS-CoV-2 RBD (B.1.1.7) domain (SARS-CoV-2); test: RBD/ACE2 blocking ELISA
[18] = target: SARS-CoV-2 RBD (B.1.351) domain (SARS-CoV-2); test: RBD/ACE2 blocking ELISA
[19] = target: SARS-CoV-2 RBD (P.1) domain (SARS-CoV-2); test: RBD/ACE2 blocking ELISA
[20] = target: SARS-CoV-2 RBD domain, Wuhan (SARS-CoV-2); test: RBD/ACE2 blocking ELISA
[21] = target: SARS-CoV-2 delta plus variant RBD (SARS-CoV-2); test: RBD/ACE2 blocking ELISA
[22] = target: T2, SARS-CoV-2 delta variant B.1.617.2/3 …; test: RBD/ACE2 blocking ELISA
[23] = target: T3, SARS-CoV-2 kappa variant B.1.617.1/3 …; test: RBD/ACE2 blocking ELISA
[24] = target: T1, SARS-CoV-2 Spike ectodomain (tri-S), …; test: tri-S/ACE2 blocking ELISA
[25] = target: T4, SARS-CoV-2 omicron variant B.1.1.529 Spike ectodomain (tri-S, HexaPro) (SARS-CoV-2), P0DTC2
[26] = target: SARS-CoV-2 RBD (B.1.351) domain (SARS-CoV-2); test: ELISA; unit from paragraph 452, none printed in the heatmap
[27] = target: T4, SARS-CoV-2 omicron variant B.1.1.529 …; test: as above
[28] = target: T1, SARS-CoV-2 Spike ectodomain (tri-S), …; test: tri-S-ACE2 competition ELISA; unit from legend paragraph 348

B1: CAS (antibody)
chain 1: QVQLVESGGGLVKPGGSLRLSCAASGFTFSDYYMSWIRQAPGKGLEWVSYITYSGSTIYYADSVKGRFTISRDNAKSSLYLQMNSLRAEDTAVYYCARDRGTTMVPFDYWGQGTLVTVSS
chain 2: DIQMTQSPSSLSASVGDRVTITCQASQDITNYLNWYQQKPGKAPKLLIYAASNLETGVPSRFSGSGSGTDFTFTISGLQPEDIATYYCQQYDNLPLTFGGGTKVEIK
[1]
  OD405nm: 3.4
[2]
  OD405nm: 3.5
[3]
  OD405nm: 3.2
[4]
  OD405nm: 3.2
[5]
  OD405nm: 3.4
[6]
  OD405nm: 3.4
[7]
  OD405nm: 3.6
[8]
  log10 ΔgMFI: 4.5

B2: REGN10933 (parental IgG1 version) (antibody, V domains shown)
VH: B1 chain 1
VL: B1 chain 2
[9]
  AUC: 3
[10]
  AUC: 3
[11]
  AUC: 3
[12]
  AUC: 3
[13]
  AUC: 3
[14]
  AUC: 3
[15]
  AUC: 3
[16]
  AUC: 4
[17]
  % binding inhibition: 91%
[18]
  % binding inhibition: 28%
[19]
  % binding inhibition: 0%
[20]
  % binding inhibition: 97%
[21]
  % binding inhibition: 93%
[22]
  % binding inhibition: 97%
[23]
  % binding inhibition: 94%
[24]
  % binding inhibition: 96%

B3: Casirivimab (antibody)
heavy chain: B1 chain 1
light chain: B1 chain 2
[25]
  IC50: > 2 µg/mL
[26]
  EC50: 0.009 µg/mL
[27]
  EC50: 0.804 µg/mL
[28]
  IC50: 0.2 µg/mL

B4: Regdanvimab (antibody)
heavy chain: QITLKESGPTLVKPTQTLTLTCSFSGFSLSTSGVGVGWIRQPPGKALEWLALIDWDDNKYHTTSLKTRLTISKDTSKNQVVLTMTNMDPVDTATYYCARIPGFLRYRNRYYYYGMDVWGQGTTVTVSS
light chain: ELVLTQPPSVSAAPGQKVTISCSGSSSNIGNNYVSWYQQLPGTAPKLLIYDNNKRPSGIPDRFSGSKSGTSATLGITGLQTGDEADYYCGTWDSSLSAGVFGGGTELTVL
[26]
  EC50: 0.008 µg/mL
